Laboratory results published in patent CN117069831A.

Tests used:
所有突变型S1抗原或spike [1] = assay: SPR, Biacore T200; reference is the positive control antibody (北京百普赛斯)
所有突变型S1抗原或spike [2] = assay: ELISA on coated antigen; reference is the monovalent nanobody
所有突变型S1抗原或spike [3] = assay: SPR, Biacore T200, antigen coupled to CM5 chip, R-30-FC as analyte
所有突变型S1抗原或spike [4] = assay: SPR, Biacore T200; reference is the monovalent nanobody (Example 7, Table 4)
所有突变型S1抗原或spike [5] = assay: ELISA on coated antigen, anti human IgG HRP

B1: R-30-FC (Fc fusion)
chain: QVQLQESGGGLVQSGGSLRLSCTASGGIIRLNSMGWYRQAPGKQREPVATIVSDVGTNYADSVKGRFTISRDNAKNTIYLQMNSLKFEDTAVYYCVADRAFVLRGEYEYWGQGTQVTVSS[human IgG1 Fc skipped]
**Q.** How did the fold higher affinity than the positive control (所有突变型S1抗原或spike [1]) turn out when B1 was run?
**A.** 10 fold

**Q.** What about the fold improvement of EC50 over the monovalent nanobody (所有突变型S1抗原或spike [2]) of the same binder?
**A.** 20 fold

**Q.** And the Kd (所有突变型S1抗原或spike [3])?
**A.** 1 pM

**Q.** What about the fold improvement of affinity constant over the monovalent nanobody (所有突变型S1抗原或spike [4]) of the same binder?
**A.** 20 fold

**Q.** What about the EC50 (所有突变型S1抗原或spike [5]) of the same binder?
**A.** < 100 pM
